The target of the experiment is monoclonal antibody M75 (MAb M75), secreted from the hybridoma VU-M75, ATCC HB 11128. Nature of the experiment: competition ELISA with M75 on immobilized GST-MN. Background: ELISA stands for enzyme-linked immunosorbent assay.

In turn, “complete MN/CA IX+ protein purified from Vero cells infected with vaccinia virus containing the complete coding region of MN/CA IX (from UniProt Q16790 38-459) (enzyme)” yielded a fold more active than the smallest serologically active peptide (molar concentration) of 1.5e+08 x and a fold more active than the smallest serologically active peptide (weight/volume concentration) of 100000 x.

Source of the values: patent EP1832653A1.
